A mixed list of measured activities; the numbers were collected in NIAID ChemDB.

Shared fields: growth or infection tests; organism: Rhinovirus; endpoint: EC50

An empty or dashed field is not shown. ECn is the concentration giving n% inhibition of infection, replication or growth. Conditions beyond the fields shown may differ between rows.

compound | strain or isolate | cell line | method | value
CCO/N=C/c1ccc(OCCC2CCN(c3ccc(Cl)nn3)CC2)c(OC)c1 | TYPE 1A | KB | cytopathic effect / visual reading | <0.0032 µg/mL
CCOC(=O)/C=C/[C@H](C[C@@H]1CCNC1=O)NC(=O)[C@H](Cc1ccc(F)cc1)NC(=O)[C@@H](NC(=O)c1cc(C)on1)C(C)C | Serotype 2 |  |  | <0.05 µM
CSc1nsc(-c2ccc(OCCCc3ccccc3)cc2)c1C#N | Serotype 89 (group B) | HELA-OHIO | cytopathic effect | 1.2 µM
CO/N=C/c1ccc(OCCCCN2CCN(c3ccc(Cl)nn3)CC2)cc1 | TYPE 1A | KB | cytopathic effect / visual reading | 0.003 µg/mL
CC(=O)Nc1nc2c(CC(O)CO)nc(C)n2c(=O)[nH]1 | TYPE 9 | WI-38 | cytopathic effect | >400 µg/mL
Cc1cc(CCCOc2c(Cl)cc(C3=NCCO3)cc2Cl)on1 | Serotype 1 |  | plaque count | 0.17 µg/mL
CCOC(=O)/C=C/[C@H](CCC(N)=O)NC(=O)[C@H](Cc1ccc(F)cc1)N(C)C(=O)[C@H](CC(C)C)NC(=O)c1cc(C)on1 | Serotype 10 | H1-HELA | XTT | 0.14 µM
CSc1nsc(-c2ccc(OCc3ccccc3)cc2)c1C#N | Serotype 45 (group A) | HELA-OHIO | cytopathic effect | >50 µM
Cc1ccccc1Cn1cnc2c(N(C)C)nc(C(F)(F)F)nc21 | Serotype 1B | M-HELA | plaque count | 0.29 µM
Cn1c2ccccc2c2n[nH]c(=S)nc21 | HGP | WI-38 | plaque count | 45 µg/mL
CSc1nsc(-c2ccc(O)cc2)c1C#N | Serotype 15 (group B) | HELA-OHIO | cytopathic effect | >10 µM
Cn1c2ccc(Cl)cc2c2nnc(NCCCO)nc21 | 33342 | WI-38 | plaque count | 45 µg/mL
Clc1ccc(C2COc3ccc(Cl)cc3C2)cc1 | Serotype 1B | M-HELA | plaque count | 0.162 µM
CN(C)c1nc(C(F)(F)F)nc2c1ncn2Cc1ccc(Cl)c(Cl)c1 | Serotype 13 | M-HELA | plaque count | >8 µM
CSc1nc2ccc(OCCC3CCN(c4ccc(C)nn4)CC3)cc2o1 | Serotype 1A | MRC-5 | cytopathic effect | 0.006 µg/mL
Cn1c2ccc(Cl)cc2c2n[nH]c(=S)nc21 | 1059 | WI-38 | plaque count | 20 µg/mL
CS(=O)(=O)c1ccc(Cc2ccc(Br)cc2)nc1 | TYPE 2 | HeLa | cytopathic effect | 2.5 µg/mL
CC(O)CCNc1nnc2c3ccccc3n(C)c2n1 | 1059 | WI-38 | plaque count | 45 µg/mL
Fc1cccc(Cn2cnc3c(Nc4cccc(F)c4)nc(C(F)(F)F)nc32)c1 | Serotype 6 | M-HELA | plaque count | >2.5 µM
CC(=O)NCCCNc1nnc2c3ccccc3n(C)c2n1 | 1059 | WI-38 | plaque count | 10 µg/mL
CCS(=O)(=O)c1ccc(NCc2ccc(Cl)c(Cl)c2)nc1 | TYPE 2 | HeLa | cytopathic effect | >10 µg/mL
CSc1nsc(-c2ccc(OC(C)(C)C)cc2)c1C#N | Serotype 72 (group A) | HELA-OHIO | cytopathic effect | >40 µM
COc1ccc(OC)c2[nH]c([C@H](O)[C@@H](O)c3nc4c(OC)ccc(OC)c4[nH]3)nc12 | Serotype 1A | WI-38 | cytopathic effect | 320 µg/mL
Cn1c2ccccc2c2nnc(NCCCN)nc21 | HGP | WI-38 | plaque count | 10 µg/mL
CCCc1nc2ccc(OCCC3CCN(c4ccc(C)nn4)CC3)cc2o1 | Serotype 14 | MRC-5 | cytopathic effect | 0.028 µg/mL
CCO/N=C/c1ccc(OCCC2CCN(c3ccc(Cl)nn3)CC2)cc1 | 1983-CV48 (ICAM-1 receptor group 66) | KB | neutral red | 0.02 µM
CCO/N=C/c1ccc(OCCC2CCN(c3ccc(C)nn3)CC2)cc1O | TYPE 1A | KB | cytopathic effect / visual reading | <0.0032 µg/mL
Cc1ccc(N2CCC(CCOc3ccc4oc(C)nc4c3)CC2)nn1 | Serotype 14 | MRC-5 | cytopathic effect | >0.5 µg/mL
CS(=O)(=O)c1ccc(NCc2ccc(Cl)cc2)nc1 | TYPE 64 | HeLa | cytopathic effect | 1.6 µg/mL
CCOC(=O)c1ccc(OCCOc2ccc(-c3snc(SC)c3C#N)cc2)cc1 | Serotype 51 (group B) | HELA-OHIO | cytopathic effect | >2 µM
CS(=O)(=O)c1ccc(Oc2ccc(Cl)c(Cl)c2)nc1 | TYPE 64 |  | cytopathic effect | 0.94 µM
Cc1ccc(Cn2cnc3c(N(C)C)nc(C(F)(F)F)nc32)cc1 | TYPE 4 | M-HELA | plaque count | >2.5 µM
CN(C)c1nc(C(F)(F)F)nc2c1ncn2Cc1cccc(F)c1 | TYPE 1B | M-HELA | plaque count | 0.03 µM
CCOc1cnc2ccc(OCCC3CCN(c4ccc(C)nn4)CC3)cc2n1 | Serotype 2 | MRC-5 | cytopathic effect | 0.084 µg/mL
Brc1ccc(C2=Cc3cc(Br)ccc3OC2)cc1 | Serotype 1B | M-HELA | plaque count | 3.28 µM
Cc1cc(CCCOc2c(C)cc(-c3noc(C(F)(F)F)n3)cc2C)on1 | Serotype 1A |  |  | <1.4 µM
C=CCc1nc(C)n2c(=O)[nH]c(NC(C)=O)nc12 | TYPE 1A | WI-38 | cytopathic effect | >200 µg/mL
Clc1ccc(C2COc3ccccc3C2)cc1 | Serotype 1B | M-HELA | plaque count | 0.511 µM
COc1ccc2nc(C[C@@H](O)c3nc4ccc(OC)cc4[nH]3)[nH]c2c1 | Serotype 1A | WI-38 | cytopathic effect | 10 µg/mL
O=C(O)c1ccc(-c2cc(=O)c3ccccc3o2)cc1 | TYPE 1B | OHIO HELA | plaque count | >25 µM
CN(C)c1nc(Cl)nc2c1ncn2Cc1ccc(Cl)cc1 | Serotype 19 | M-HELA | plaque count | >5 µM
CS(=O)(=O)c1ccc(Cc2ccc(Sc3ccccc3)cc2)nc1 | TYPE 2 | HeLa | cytopathic effect | 1.3 µg/mL
CSc1nsc(-c2ccc(OS(=O)(=O)c3ccc(C)cc3)cc2)c1C#N | Serotype 86 (group A) | HELA-OHIO | cytopathic effect | >25 µM
Cc1c(-c2ccccc2)n(-c2cccc(F)c2)c2ccc(C(C)C)cc2c1=O | Clinical isolate | HELA-OHIO | cytopathic effect | 0.017 µg/mL
CS(=O)(=O)c1ccc(NCc2ccc(Cl)c(Cl)c2)nc1 | TYPE 74 | HeLa | cytopathic effect | 1.3 µg/mL
CCSc1nc2ccc(OCCC3CCN(c4ccc(Cl)nn4)CC3)cc2o1 | Serotype 14 | MRC-5 | cytopathic effect | 0.02 µg/mL
CC(=O)Nc1nc2c(CC(O)CO)ncn2c(=O)[nH]1 | TYPE 1A | WI-38 | cytopathic effect | >400 µg/mL
Cc1ccc(Cc2ccc(S(C)(=O)=O)cn2)cc1 | TYPE 64 | HeLa | cytopathic effect | 5 µg/mL
Cc1cc(C(=O)N[C@H](C(=O)C[C@@H](Cc2ccc(F)cc2)C(=O)N[C@H](/C=C2\CCOC2=O)C[C@@H]2CCNC2=O)C(C)C)no1 | Serotype 14 | H1-HELA | XTT | <0.03 µM
CCOC(=O)c1ccc(OCCC2CCN(c3ccc(C)nn3)CC2)cc1 | Serotype 39 | WI-38 | cytopathic effect | <0.1 µg/mL
Cc1ccc(Cn2cnc3c(N(C)C)nc(C(F)(F)F)nc32)c(C)c1 | Serotype 30 | M-HELA | plaque count | >8 µM
Clc1ccc(C2=Cc3cc(Cl)ccc3OC2)cc1 | Serotype 1B | M-HELA | plaque count | 0.397 µM
O[C@@H](c1nc2ccc(Cl)cc2[nH]1)[C@@H](O)c1nc2ccc(Cl)cc2[nH]1 | Serotype 42 | WI-38 | cytopathic effect | 100 µg/mL
CSc1nsc(-c2ccc(OCCCCOc3ccccc3)cc2)c1C#N | Serotype 51 (group B) | HELA-OHIO | cytopathic effect | >20 µM
CCCOc1nc2cc(OCCC3CCN(c4ccc(C)nn4)CC3)ccc2s1 | Serotype 2 | MRC-5 | cytopathic effect | 0.166 µg/mL
CCCO/N=C/c1ccc(OCCCc2cc(C)no2)cc1 | TYPE 1A | KB | cytopathic effect / visual reading | >1 µg/mL
Cc1c(-c2ccccc2)n(-c2ccc(F)cc2)c2ccc(C(C)C)cc2c1=O | 10/204-CV14 | HELA-OHIO | cytopathic effect | 0.032 µg/mL
CSc1nsc(-c2ccc(OCCOc3ccc([N+](=O)[O-])cc3)cc2)c1C#N | Serotype 59 (group B) | HELA-OHIO | cytopathic effect | >2 µM
Cc1cc(CCCOc2c(C)cc(-c3coc(C)n3)cc2C)on1 | Serotype 16 |  | plaque count | 0.954 µg/mL
CCOC(=O)/C=C/[C@H](C[C@@H]1CCNC1=O)NC(=O)[C@@H](CC(=O)[C@@H](NC(=O)c1cc(C)on1)C(C)C)Cc1ccc(F)cc1 | Isolate 35 | OHIO HELA-I | cytopathic effect / visual reading | <0.01 µg/mL
CN(C)c1nc(C(F)(F)F)nc2c1ncn2Cc1ccc(Br)cc1 | Serotype 1B | M-HELA | plaque count | 0.03 µM
Cc1cc(CCCCCOc2c(Cl)cc(C3=NCCO3)cc2Cl)on1 | TYPE 18 | HeLa | plaque count | 0.26 µg/mL
CN(C)c1nc(Cl)nc2c1ncn2Cc1cccc([N+](=O)[O-])c1 | Serotype 1B | M-HELA | plaque count | >50 µM
O=C1CC(c2ccc(C3=NCCO3)cc2)Oc2ccc(Cl)cc21 | TYPE 1B | OHIO HELA | plaque count | 5.16 µM
CCOc1nc2ccc(OCCC3CCN(c4cc(C)cnn4)CC3)cc2o1 | Serotype 14 | MRC-5 | cytopathic effect | 0.166 µg/mL
O=C(O)c1ccc(C2CC(=O)c3ccccc3O2)cc1 | TYPE 1B | OHIO HELA | plaque count | 13.79 µM
Cc1nc(C(C)C)c2[nH]c(=S)[nH]c(=O)n12 | TYPE 9 | WI-38 | cytopathic effect | >200 µg/mL
CN(C)c1ccc(Cn2cnc3c(N(C)C)nc(C(F)(F)F)nc32)cc1 | TYPE 1B | M-HELA | plaque count | 0.29 µM
O=C(O)c1ccc(/C=C/C(=O)c2ccccc2O)cc1 | TYPE 1B | OHIO HELA | plaque count | 24.44 µM
CSc1nsc(-c2ccc(OCCCCOc3ccc(C#N)cc3)cc2)c1C#N | Serotype 70 (group A) | HELA-OHIO | cytopathic effect | >2 µM
CCOC(=O)/C=C/[C@H](C[C@@H]1CCNC1=O)NC(=O)[C@H](Cc1ccc(F)cc1)NC(=O)[C@@H](NC(=O)c1cc(C)on1)C(C)(C)C | Serotype 16 | H1-HELA | XTT | 0.04 µM
CN(C)c1ncnc2c1ncn2Cc1ccc(F)cc1 | Serotype 1B | M-HELA | plaque count | >50 µM
CN(C)c1nc(C(F)(F)F)nc2c1ncn2Cc1ccc([N+](=O)[O-])cc1 | Serotype 21 | M-HELA | plaque count | >8 µM
COc1ccc2nc([C@H](OC(C)=O)[C@@H](OC(C)=O)c3nc4ccc(OC)cc4[nH]3)[nH]c2c1 | Serotype 42 | WI-38 | cytopathic effect | 10 µg/mL
CSc1nsc(-c2ccc(OCCOc3ccccc3)cc2)c1C#N | Serotype 89 (group B) | HELA-OHIO | cytopathic effect | 3.5 µM
Clc1ccc2c(c1)CC(c1ccccc1)CO2 | Serotype 1B | M-HELA | cytopathic effect | 0.82 µM
CCC(CO)Nc1nnc2c3ccccc3n(C)c2n1 | HGP | WI-38 | plaque count | 100 µg/mL
CCn1oc2cc(OCCC3CCN(c4ccc(C)nn4)CC3)ccc2c1=O | Serotype 2 | MRC-5 | cytopathic effect | 0.246 µg/mL
Cc1ccc(-n2c(-c3ccccc3)c(C)c(=O)c3cc(C(C)C)ccc32)cc1 | TYPE 1B/B632 | HELA-OHIO | cytopathic effect | >2.5 µg/mL

A second listing of 9 rows from above:

compound	strain or isolate	cell line	method	value
CCCO/N=C/c1ccc(OCCCc2cc(C)no2)cc1	TYPE 1A	KB	cytopathic effect / visual reading	>1 µg/mL
CCO/N=C/c1ccc(OCCC2CCN(c3ccc(Cl)nn3)CC2)cc1	1983-CV48 (ICAM-1 receptor group 66)	KB	neutral red	0.02 µM
Cn1c2ccccc2c2n[nH]c(=S)nc21	HGP	WI-38	plaque count	45 µg/mL
CCCc1nc2ccc(OCCC3CCN(c4ccc(C)nn4)CC3)cc2o1	Serotype 14	MRC-5	cytopathic effect	0.028 µg/mL
Cc1cc(CCCCCOc2c(Cl)cc(C3=NCCO3)cc2Cl)on1	TYPE 18	HeLa	plaque count	0.26 µg/mL
CCOC(=O)c1ccc(OCCOc2ccc(-c3snc(SC)c3C#N)cc2)cc1	Serotype 51 (group B)	HELA-OHIO	cytopathic effect	>2 µM
CC(O)CCNc1nnc2c3ccccc3n(C)c2n1	1059	WI-38	plaque count	45 µg/mL
Clc1ccc(C2COc3ccc(Cl)cc3C2)cc1	Serotype 1B	M-HELA	plaque count	0.162 µM
Cc1nc(C(C)C)c2[nH]c(=S)[nH]c(=O)n12	TYPE 9	WI-38	cytopathic effect	>200 µg/mL